ChEMBL document CHEMBL1687735, “Resistance to colistin in Acinetobacter baumannii associated with mutations in the PmrAB two-component system” (Antimicrob Agents Chemother, 2009)

Experiments:
[1] = system: Acinetobacter baumannii; conditions: MAC201
[2] = system: Acinetobacter baumannii; conditions: MAC103
[3] = system: Acinetobacter baumannii; conditions: MAC102
[4] = system: Acinetobacter baumannii; conditions: MAC102; remark: listed apart in the source
[5] = system: Acinetobacter baumannii; conditions: MAC103; remark: listed apart in the source
[6] = system: Acinetobacter baumannii; conditions: AB060
[7] = system: Acinetobacter baumannii; conditions: MAC201; remark: listed apart in the source
[8] = system: Acinetobacter baumannii; conditions: MAC203
[9] = system: Acinetobacter baumannii; conditions: MAC203; remark: listed apart in the source
[10] = system: Acinetobacter baumannii; conditions: MAC103; remark: listed apart in the source
[11] = system: Acinetobacter baumannii; conditions: MAC201; remark: listed apart in the source
[12] = system: Acinetobacter baumannii; conditions: MAC203; remark: listed apart in the source
[13] = system: Acinetobacter baumannii; conditions: MAC101
[14] = system: Acinetobacter baumannii; conditions: ACCA152
[15] = system: Acinetobacter baumannii; conditions: MAC203; remark: listed apart in the source
[16] = system: Acinetobacter baumannii; conditions: ACCA152; remark: listed apart in the source
[17] = system: Acinetobacter baumannii; conditions: MAC203; remark: listed apart in the source
[18] = system: Acinetobacter baumannii; conditions: MAC103; remark: listed apart in the source
[19] = system: Acinetobacter baumannii; conditions: AB060; remark: listed apart in the source
[20] = system: Acinetobacter baumannii; conditions: MAC201; remark: listed apart in the source
[21] = system: Acinetobacter baumannii; conditions: AB060; remark: listed apart in the source
[22] = system: Acinetobacter baumannii; conditions: MAC101; remark: listed apart in the source
[23] = system: Acinetobacter baumannii; conditions: MAC203; remark: listed apart in the source
[24] = system: Acinetobacter baumannii; conditions: AB060; remark: listed apart in the source

COLISTIN SULFATE
MIC [1]: 64 µg/mL | MIC [2]: 1 µg/mL | MIC [3]: 64 µg/mL | MIC [4]: 4 µg/mL | MIC [5]: 1 µg/mL | MIC [6]: 0.5 µg/mL | MIC [7]: 128 µg/mL | MIC [8]: 4 µg/mL | MIC [9]: 0.5 µg/mL | MIC [10]: 128 µg/mL | MIC [11]: 16 µg/mL | MIC [12]: 1 µg/mL | MIC [13]: > 128 µg/mL | MIC [14]: > 128 µg/mL | MIC [15]: 0.5 µg/mL | MIC [16]: 24 µg/mL | MIC [17]: 2 µg/mL | MIC [18]: 0.5 µg/mL | MIC [19]: 1 µg/mL | MIC [20]: 128 µg/mL | MIC [21]: 1 µg/mL | MIC [22]: 32 µg/mL | MIC [23]: 4 µg/mL | MIC [24]: 0.25 µg/mL
